Reference: PubChem BioAssay (NCATS)
This is a selection; strong and weak results do not stand in their true shares. Inconclusive results are not listed. Active and inactive are the calls of the source. Calls come from the whole dose curve; as a rule, active = well fitted curve in the direction sought with a large enough effect; inconclusive = small, poorly fitted or top-dose-only effect, or another doubt; inactive = no such curve, though single readings can be large; an effect the other way counts as inactive or inconclusive.

Protein sequences, listed by entry. Tags and fused reporters are not part of them.
UniProt A8B2U2, whole entry: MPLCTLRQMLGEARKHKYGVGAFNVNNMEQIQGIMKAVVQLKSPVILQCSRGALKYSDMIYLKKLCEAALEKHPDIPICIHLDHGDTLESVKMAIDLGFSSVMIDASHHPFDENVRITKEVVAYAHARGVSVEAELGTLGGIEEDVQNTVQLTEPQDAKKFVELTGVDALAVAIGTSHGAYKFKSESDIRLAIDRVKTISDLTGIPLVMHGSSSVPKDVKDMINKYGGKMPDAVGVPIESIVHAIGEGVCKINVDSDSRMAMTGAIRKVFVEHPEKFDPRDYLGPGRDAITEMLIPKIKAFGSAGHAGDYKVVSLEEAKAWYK
UniProt P00883, whole entry: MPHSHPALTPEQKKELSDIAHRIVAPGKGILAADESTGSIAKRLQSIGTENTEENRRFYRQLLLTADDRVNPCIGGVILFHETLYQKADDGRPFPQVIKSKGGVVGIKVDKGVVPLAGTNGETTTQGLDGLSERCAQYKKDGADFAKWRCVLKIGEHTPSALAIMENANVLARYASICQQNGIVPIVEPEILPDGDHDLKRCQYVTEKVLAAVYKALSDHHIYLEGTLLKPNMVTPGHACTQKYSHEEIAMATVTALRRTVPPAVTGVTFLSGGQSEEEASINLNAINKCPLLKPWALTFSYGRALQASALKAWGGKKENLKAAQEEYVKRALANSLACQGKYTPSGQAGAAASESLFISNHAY

Experiments:
[1] = qHTS Assay for Inhibitors of Fructose-1,6-bisphosphate Aldolase from Giardia Lamblia: Giardia lamblia growth inhibition (AID 2785); details: Giardia lamblia trophozoite growth inhibition; at 57.5 µM (top of the series);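 note: trophozoites exposed to compound for 48 h at 37 °C; nearly all actives have a fitted effect of over 70% in size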
Text: (§1) NIH Chemical Genomics Center [NCGC]
(§2) NIH Molecular Libraries Probe Production centers Network [MLPCN]
(§3) Assay Provider: Osnat Herzberg, University of Maryland
(§4) The objective of this project is to obtain compounds that inhibit Giardia lamblia growth. G. lamblia is a human pathogen which afflicts impoverished nations; it is the most common cause of outbreaks of diarrhea in the United States. During the course of our study of potential drug targets in Giardia, we have identified the Class II (Zn2+ functions in electrophilic catalysis) fructose-1,6-bisphosphate aldolase (FBPA) as an excellent candidate for drug targeting. FBPA is a key glycolytic pathway enzyme, essential for G. lamblia survival. […]
(§5) A glyceraldehyde-3-phosphate dehydrogenase/triose phosphate isomerase/NAD/arsenate coupled assay was adapted to the 1536-well HTP format for use in the primary screen. This was done by coupling it to a diaphorase/resazurin/resorufin reaction that can be monitored by fluorescence (excitation, 544 nm; emission, 590 nm). Compounds identified in this screen will be further evaluated by coupling the glycerol-3-phosphate/triose phosphate isomerase/NADH assay to a phenazine methosulfate/tetranitroblue tetrazolium color reaction. […]

[2] = qHTS Assay for Inhibitors of Fructose-1,6-bisphosphate Aldolase from Giardia Lamblia: Mammalian cellular toxicity (AID 2786); details: mammalian cell viability counter-screen; at 57.5 µM (top of the series);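 note: compound exposure lasted 48 h before reading; nearly all actives have a fitted effect of over 60% in size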
Text: as §1, §2, §3, §4, §5

[3] = target: Fructose-bisphosphate aldolase (Giardia intestinalis (strain ATCC 50803 / WB clone C6)) (UniProt A8B2U2); assay: qHTS Assay for Inhibitors of Fructose-1,6-bisphosphate Aldolase from Giardia Lamblia: Primary screen confirmation (AID 2787); details: purified Giardia aldolase enzyme activity; at 57.5 µM (top of the series);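 note: aldolase product measured through coupled diaphorase step turning resazurin into fluorescent resorufin; nearly all actives have a fitted effect of over 45% in size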
Text: as §1, §2, §3, §4, §5
(§6) 6,Detector,525 nm/598 nm (Fluorescence),ViewLux Fluorescence Read (Read 1) […]

[4] = target: Fructose-bisphosphate aldolase A (Oryctolagus cuniculus) (UniProt P00883); assay: qHTS Assay for Inhibitors of Fructose-1,6-bisphosphate Aldolase from Giardia Lamblia: Rabbit FBPA Selectivity (AID 2794); details: Rabbit muscle FBPA enzyme inhibition, selectivity counter-screen; at 57.5 µM (top of the series); note: nearly all actives have a fitted effect of over 60% in size
Text: as §1, §2, §3, §4, §5, §6

[5] = qHTS Assay for Inhibitors of Fructose-1,6-bisphosphate Aldolase from Giardia Lamblia: Coupling assay counterscreen confirmation (AID 2795); details: GAPDH coupling enzyme counterscreen, biochemical; at 57.5 µM (top of the series); note: nearly all actives have a fitted effect of over 55% in size
Outline: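 Concentration-response counterscreen (up to 57.5 uM final) of aldolase-screen hits against coupling enzymes only. Substrate, coupling system and AmpLite Red were added after a 10 min RT preincubation; fluorescence was taken 20 min later at 525/598 nm.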
% is set by controls: 0 for no effect and ±100 for the full control effect.

CN1CCC(Nc2ccc(Cl)cc2)CC1
inactive: activity change, negative = inhibition [1] -5.92% | viability change, negative = toxicity [2] 2.07% | activity change, negative = inhibition [3] -8.38% | activity, negative = inhibition [4] 0.145% | activity change, negative = inhibition [5] 12.5%

CCCN1CCC(Nc2cc(OC)cc(OC)c2)CC1
inactive: activity change, negative = inhibition [1] -9.31% | activity change, negative = inhibition [3] -28.7% | activity, negative = inhibition [4] -14.1% | activity change, negative = inhibition [5] -21.9%
